Amino acid sequences for entries named in this document (tags omitted). Residues count along the entry.
UniProt Q45894, 1-425: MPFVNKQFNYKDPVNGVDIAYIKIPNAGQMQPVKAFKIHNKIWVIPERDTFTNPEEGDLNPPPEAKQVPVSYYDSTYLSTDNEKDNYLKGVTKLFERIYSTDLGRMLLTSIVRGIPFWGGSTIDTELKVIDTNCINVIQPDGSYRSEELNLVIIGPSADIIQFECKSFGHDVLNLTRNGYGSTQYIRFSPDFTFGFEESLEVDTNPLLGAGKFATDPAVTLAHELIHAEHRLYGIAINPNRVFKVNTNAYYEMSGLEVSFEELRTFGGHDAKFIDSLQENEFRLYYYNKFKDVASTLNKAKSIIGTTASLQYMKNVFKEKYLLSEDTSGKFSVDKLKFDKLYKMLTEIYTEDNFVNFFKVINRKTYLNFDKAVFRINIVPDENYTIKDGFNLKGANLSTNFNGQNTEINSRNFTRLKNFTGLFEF

In BindingDB's records for 16597152:

These compounds were tested against Botulinum neurotoxin type A2 [1-425] (Clostridium botulinum, UniProt Q45894). Conditions: pH 7.4.

Q: Which IC50 does the source give for `N#Cc1ccc(/C=C/C(=O)NO)cc1` here?
A: 61 µM

Q: How did the IC50 turn out when `O=C(/C=C/c1ccc(Br)cc1)NO` was run?
A: 40 µM

Q: How did the IC50 turn out when `O=C(/C=C/c1ccc(F)cc1)NO` was run?
A: 54 µM

Q: How did the IC50 turn out when `O=C(/C=C(\F)c1ccccc1)NO` was run?
A: > 100 µM

Q: For `O=C(C#Cc1ccc(Cl)cc1Cl)NO`, which IC50 is on record?
A: 73 µM

Q: For `O=C(/C=C/c1ccc(Cl)c(Cl)c1)NO`, which IC50 is on record?
A: 75 µM

Q: For `COc1ccc(/C=C/C(=O)NO)cc1`, which IC50 is on record?
A: 79 µM

Q: Which IC50 does the source give for `CC(C)(C)c1ccc(/C=C/C(=O)NO)cc1` here?
A: > 100 µM

Q: With `Cc1ccc(/C=C/C(=O)NO)cc1` as the compound, how does the IC50 read?
A: 87 µM

Q: Which IC50 does the source give for `O=C(/C=C/c1ccc([N+](=O)[O-])cc1)NO` here?
A: 72 µM

Q: Which IC50 does the source give for `O=C(CCc1ccc(Cl)cc1Cl)NO` here?
A: 3.1 µM
